{"source": "paper PMC11934087", "about": "(ACS Chemical Biology, 2025)", "note": "HELM strings list residues between dots; [ac] is acetyl, [am] amide, other brackets name non-standard units.", "data": [{"assay": "general procedure: Fmoc solid-phase peptide synthesis", "conditions": "whole synthesis", "units": {"final HPLC purity": "%"}, "values": [{"substance": "Ac-W-βAla-AAAELΤLQELL(BAA)-CONH2", "final HPLC purity": 99}, {"substance": "FAM-βAla-AAA(S5)LTL(S5)ELLG-CONH2", "final HPLC purity": 100}, {"substance": "PEPTIDE1{[FAM].[bAla].A.A.A.E.L.T.L.Q.E.L.L.G.[am]}$$$$V2.0", "final HPLC purity": 99}, {"substance": "PEPTIDE1{[FAM].[bAla].A.A.A.E.L.T.L.Q.E.L.L.[Dap(ACA)].[am]}$$$$V2.0", "final HPLC purity": 99}, {"substance": "PEPTIDE1{[FAM].[bAla].A.A.A.E.L.T.L.Q.E.L.L.[Dap(BAA)].[am]}$$$$V2.0", "final HPLC purity": 100}, {"substance": "PEPTIDE1{[FAM].[bAla].A.A.A.E.L.T.L.Q.E.L.L.[Dap(CAA)].[am]}$$$$V2.0", "final HPLC purity": 100}, {"substance": "PEPTIDE1{[FAM].[bAla].A.A.A.E.L.T.L.[S5].E.L.L.[S5].[am]}$PEPTIDE1,PEPTIDE1,10:R3-14:R3$$$V2.0", "final HPLC purity": 97}, {"substance": "PEPTIDE1{[FAM].[bAla].A.A.A.E.[R8].T.L.Q.E.L.L.[S5].[am]}$PEPTIDE1,PEPTIDE1,7:R3-14:R3$$$V2.0", "final HPLC purity": 98}, {"substance": "PEPTIDE1{[FAM].[bAla].A.A.A.E.[S5].T.L.Q.[S5].L.L.G.[am]}$PEPTIDE1,PEPTIDE1,7:R3-11:R3$$$V2.0", "final HPLC purity": 100}, {"substance": "PEPTIDE1{[FAM].[bAla].A.[R8].A.E.L.T.L.Q.[S5].L.L.G.[am]}$PEPTIDE1,PEPTIDE1,4:R3-11:R3$$$V2.0", "final HPLC purity": 96}, {"substance": "PEPTIDE1{[FAM].[bAla].[R8].A.A.E.L.T.L.[S5].E.L.L.G.[am]}$PEPTIDE1,PEPTIDE1,3:R3-10:R3$$$V2.0", "final HPLC purity": 97}, {"substance": "PEPTIDE1{[FAM].[bAla].[R8].A.A.E.L.T.L.[S5].E.L.L.[Dap(CAA)].[am]}$PEPTIDE1,PEPTIDE1,3:R3-10:R3$$$V2.0", "final HPLC purity": 95}, {"substance": "PEPTIDE1{[FAM].[bAla].[S5].A.A.E.[S5].T.L.Q.E.L.L.G.[am]}$PEPTIDE1,PEPTIDE1,3:R3-7:R3$$$V2.0", "final HPLC purity": 100}, {"substance": "PEPTIDE1{[ac].W.[bAla].A.A.A.E.L.T.L.Q.E.L.L.[Dap(ACA)].[am]}$$$$V2.0", "final HPLC purity": 98}, {"substance": "PEPTIDE1{[ac].W.[bAla].A.A.A.E.L.T.L.Q.E.L.L.[Dap(CAA)].[am]}$$$$V2.0", "final HPLC purity": 100}]}]}
